Anti-infective test results gathered from many reports (values: NIAID ChemDB through PubChem).

Shared fields: whole-cell or culture tests; organism: Aspergillus clavatus

An empty or dashed field is not shown.

CCN1CCN(c2nc(Nc3ccc(C#N)c(C(F)(F)F)c3)nc(Oc3cccc4cccnc34)n2)CC1 ; strain or isolate: MTCC 1323 ; read by: agar diffusion / agar ; read-out: zone ; dose: 100 µg/disc ; value: 21 mm
CC(=O)Nc1ccc(OCC(=O)N2N=C(c3nc4ccccc4[nH]3)CC2c2cccc(Br)c2)cc1 ; strain or isolate: MTCC 1323 ; read-out: MIC100 ; value: 250 µg/mL
Cc1nn(-c2ccccc2)c2c1C(c1ccc(O)cc1)C(C#N)=C(N)O2 ; strain or isolate: MTCC 1323 ; read-out: MIC ; value: 1000 µg/mL
Cc1nc(NC(=O)c2ccc(F)cc2)sc1C(=O)N/N=C1/S/C(=C/c2ccccc2)C(=O)N1c1ccccc1 ; strain or isolate: MTCC 1323 ; read-out: MIC50 ; value: 250 µg/mL
Cc1ccc2nc(Cl)c(C3SC(=Cc4ccc(O)cc4)C(=O)N3n3c(-c4ccc(Cl)cc4)nc4ccccc4c3=O)cc2c1 ; read by: broth dilution / visual reading ; read-out: MIC99 ; value: 500 µg/mL
CN1CCN(c2nc(Nc3ccc(C#N)c(C(F)(F)F)c3)nc(Oc3ccnc4ccccc34)n2)CC1 ; read by: agar ; read-out: zone ; dose: 100 µg/mL ; value: <10 mm
N#Cc1ccc(Nc2nc(Oc3cccc4cccnc34)nc(N3CCN(c4ncccn4)CC3)n2)cc1C(F)(F)F ; strain or isolate: MTCC 1323 ; read by: agar diffusion / agar ; read-out: zone ; dose: 100 µg/disc ; value: 24 mm
COc1cccc(C2CC(c3nc4ccccc4[nH]3)=NN2C(=O)COc2ccc(NC(C)=O)cc2)c1 ; strain or isolate: MTCC 1323 ; read-out: MIC100 ; value: 500 µg/mL
Cc1ccc(N2NOC(=O)C2S(=O)(=O)Nc2nc3c([N+](=O)[O-])cccc3s2)cc1 ; strain or isolate: MTCC323 ; read by: agar diffusion ; read-out: zone ; dose: 250 µg/mL ; value: 21 mm
COc1ccc(C2c3c(nc(=S)[nH]c3N)Oc3c2c(C)nn3-c2ccccc2)cc1 ; strain or isolate: MTCC 1323 ; read-out: MIC ; value: >1000 µg/mL
O=C1CSC(N2N=C(c3ccc(F)cc3)CC2c2cc3ccccc3nc2Cl)=N1 ; strain or isolate: MTCC 1323 ; read-out: MIC100 ; value: 500 µg/mL
Cc1nn(-c2ccccc2)c2c1C(c1cccc(Cl)c1)C(C#N)=C(N)O2 ; strain or isolate: MTCC 1323 ; read-out: MIC ; value: >1000 µg/mL
CC(=O)Nc1ccc(OCC(=O)N2N=C(c3nc4ccccc4[nH]3)CC2c2cccc(C)c2)cc1 ; strain or isolate: MTCC 1323 ; read-out: MIC100 ; value: 500 µg/mL
COc1ccc(-c2nc3ccccc3c(=O)n2-c2ccc(NS(=O)(=O)C3C(=O)ONN3c3ccc(C)cc3)cc2)cc1 ; strain or isolate: MTCC323 ; read by: agar diffusion ; read-out: zone ; dose: 250 µg/mL ; value: 23 mm
CC1=C(Cl)C(O)=CC(=O)C12Oc1cc(O)c(Cl)c(C)c1C2=O ; strain or isolate: MTCC 1323 ; read-out: MIC50 ; value: 100 µg/mL
COc1ccc(C2=NN(C3=NC(=O)CS3)C(c3cc4ccccc4nc3Cl)C2)cc1 ; strain or isolate: MTCC 1323 ; read-out: MIC100 ; value: 1000 µg/mL
COc1ccc(C2CC(c3nc4ccccc4[nH]3)=NN2C(=O)COc2ccc(NC(C)=O)cc2)cc1 ; strain or isolate: MTCC 1323 ; read-out: MIC100 ; value: 1000 µg/mL
COc1ccc(C=C2SC(c3cc4cc(C)ccc4nc3Cl)N(n3c(-c4ccc(Cl)cc4)nc4ccccc4c3=O)C2=O)cc1 ; read by: broth dilution / visual reading ; read-out: MIC99 ; value: 200 µg/mL
COC1=CC(=O)C[C@@H](C)[C@]12Oc1c(Cl)c(OC)cc(OC)c1C2=O ; strain or isolate: MTCC323 ; read by: agar diffusion ; read-out: zone ; dose: 250 µg/mL ; value: 24 mm
Cc1ccc(-c2nc3ccccc3c(=O)n2-c2ccc(C(=O)NN3C(=O)/C(=C/c4cccc([N+](=O)[O-])c4)SC3c3ccc(F)cc3)cc2)cc1 ; strain or isolate: MTCC 1323 ; read-out: MIC100 ; value: 500 µg/mL
CC(=O)Nc1ccc(OCC(=O)N2N=C(c3nc4ccccc4[nH]3)CC2c2ccccc2Br)cc1 ; strain or isolate: MTCC 1323 ; read-out: MIC100 ; value: 50 µg/mL
Cc1nn(-c2ccccc2)c2c1C(c1ccccc1Cl)C(C#N)=C(N)O2 ; strain or isolate: MTCC 1323 ; read-out: MIC ; value: >1000 µg/mL
CC(=O)Nc1ccc(OCC(=O)N2N=C(c3nc4ccccc4[nH]3)CC2c2ccc(Cl)cc2)cc1 ; strain or isolate: MTCC 1323 ; read-out: MIC100 ; value: 50 µg/mL
Cc1nc(NC(=O)c2ccc(F)cc2)sc1C(=O)N/N=C1/S/C(=C/c2ccccc2O)C(=O)N1c1ccccc1 ; strain or isolate: MTCC 1323 ; read-out: MIC50 ; value: 100 µg/mL
COC1=CC(=O)C[C@@H](C)[C@]12Oc1c(Cl)c(OC)cc(OC)c1C2=O ; strain or isolate: MTCC 1323 ; read-out: MIC100 ; value: 1000 µg/mL
Cc1ccc(-c2csc(NS(=O)(=O)C3C(=O)ONN3c3ccc(C)cc3)n2)cc1 ; strain or isolate: MTCC323 ; read by: agar diffusion ; read-out: zone ; dose: 250 µg/mL ; value: 17 mm
Cc1ccc2nc(Cl)c(C3SC(=Cc4cccc([N+](=O)[O-])c4)C(=O)N3n3c(-c4ccc(Cl)cc4)nc4ccccc4c3=O)cc2c1 ; read by: broth dilution / visual reading ; read-out: MIC99 ; value: 100 µg/mL
N#Cc1ccc(Nc2nc(Oc3cccc4cccnc34)nc(N3CCN(c4cccc(Cl)c4)CC3)n2)cc1C(F)(F)F ; strain or isolate: MTCC 1323 ; read by: agar diffusion / agar ; read-out: zone ; dose: 100 µg/disc ; value: 24 mm
COc1cc(C=C2SC(c3cc4cc(C)ccc4nc3Cl)N(n3c(-c4ccc(Cl)cc4)nc4ccccc4c3=O)C2=O)cc(OC)c1OC ; read by: broth dilution / visual reading ; read-out: MIC99 ; value: 500 µg/mL
Cc1ccccc1/C=C1/S/C(=N/NC(=O)c2sc(NC(=O)c3ccc(F)cc3)nc2C)N(c2ccccc2)C1=O ; strain or isolate: MTCC 1323 ; read-out: MIC50 ; value: 25 µg/mL
Cc1nn(-c2ccccc2)c2c1C(c1ccc(Cl)cc1)c1c(nc(=S)[nH]c1N)O2 ; strain or isolate: MTCC 1323 ; read-out: MIC ; value: >1000 µg/mL
Cc1ccc(-c2nc3ccccc3c(=O)n2-c2ccc(C(=O)NN3C(=O)/C(=C/c4ccc([N+](=O)[O-])cc4)SC3c3ccc(F)cc3)cc2)cc1 ; strain or isolate: MTCC 1323 ; read-out: MIC100 ; value: 500 µg/mL
Cc1ccc(C=C2SC(c3cc4cc(C)ccc4nc3Cl)N(n3c(-c4ccc(Cl)cc4)nc4ccccc4c3=O)C2=O)cc1 ; read by: broth dilution / visual reading ; read-out: MIC99 ; value: 1000 µg/mL
Cc1ccc(-c2nc3ccccc3c(=O)n2-c2ccc(C(=O)NN3C(=O)/C(=C/c4ccc(N(C)C)cc4)SC3c3ccc(F)cc3)cc2)cc1 ; strain or isolate: MTCC 1323 ; read-out: MIC100 ; value: 1000 µg/mL
COc1ccc(C2C(C#N)=C(N)Oc3c2c(C)nn3-c2ccccc2)cc1 ; strain or isolate: MTCC 1323 ; read-out: MIC ; value: 1000 µg/mL
O=C1CSC(N2N=C(c3ccccc3[N+](=O)[O-])CC2c2cc3ccccc3nc2Cl)=N1 ; strain or isolate: MTCC 1323 ; read-out: MIC100 ; value: 100 µg/mL
CCOc1ccc2nc(NS(=O)(=O)C3C(=O)ONN3c3ccc(C)cc3)sc2c1 ; strain or isolate: MTCC323 ; read by: agar diffusion ; read-out: zone ; dose: 250 µg/mL ; value: 23 mm
Cc1ccc(-c2nc3ccccc3c(=O)n2-c2ccc(C(=O)N/N=C\c3ccc(F)cc3)cc2)cc1 ; strain or isolate: MTCC 1323 ; read-out: MIC100 ; value: 250 µg/mL
CC(=O)Nc1ccc(OCC(=O)N2N=C(c3nc4ccccc4[nH]3)CC2c2ccccc2Cl)cc1 ; strain or isolate: MTCC 1323 ; read-out: MIC100 ; value: 25 µg/mL
N#Cc1ccc(Nc2nc(Oc3ccnc4ccccc34)nc(N3CCN(c4ccccn4)CC3)n2)cc1C(F)(F)F ; strain or isolate: MTCC 1323 ; read by: agar ; read-out: zone ; dose: 100 µg/mL ; value: <10 mm
Cc1ccc(-c2nc3ccccc3c(=O)n2-c2ccc(C(=O)NN3C(=O)/C(=C/c4ccccc4Br)SC3c3ccc(F)cc3)cc2)cc1 ; strain or isolate: MTCC 1323 ; read-out: MIC100 ; value: 25 µg/mL
Cc1ccc(N2NOC(=O)C2S(=O)(=O)Nc2nc3ccc([N+](=O)[O-])cc3s2)cc1 ; strain or isolate: MTCC323 ; read by: agar diffusion ; read-out: zone ; dose: 250 µg/mL ; value: 24 mm
Cc1ccc2nc(Cl)c(C3SC(=Cc4cccc(Cl)c4)C(=O)N3n3c(-c4ccc(Cl)cc4)nc4ccccc4c3=O)cc2c1 ; read by: broth dilution / visual reading ; read-out: MIC99 ; value: 1000 µg/mL

Repeating the first 3 entries:

compound	strain or isolate	read by	read-out	dose	value
CCN1CCN(c2nc(Nc3ccc(C#N)c(C(F)(F)F)c3)nc(Oc3cccc4cccnc34)n2)CC1	MTCC 1323	agar diffusion / agar	zone	100 µg/disc	21 mm
CC(=O)Nc1ccc(OCC(=O)N2N=C(c3nc4ccccc4[nH]3)CC2c2cccc(Br)c2)cc1	MTCC 1323	-	MIC100	-	250 µg/mL
Cc1nn(-c2ccccc2)c2c1C(c1ccc(O)cc1)C(C#N)=C(N)O2	MTCC 1323	-	MIC	-	1000 µg/mL

Conditions beyond the fields shown may differ between rows. A number after MIC or MFC names an inhibition level or a share of isolates. Zone: diameter of growth inhibition.